This is a selection; strong and weak results do not stand in their true shares. Inconclusive results are not listed. Calls of active or inactive are those of the source. Rule as the data show it: active = activity change below about -60%; inconclusive = no clear call, values can overlap the other calls; inactive = above about -39%.
% is scaled to controls: 0 for no effect and ±100 for the full control effect.

The nature of this assay: qHTS Assay for inhibitors of the human cytomegalovirus (HCMV). Conditions: HFF cells, HCMV-luciferase reporter, 72 h; at 57.5 µM; active compounds read low. The source says:
NCGC Assay Overview: Infection with human cytomegalovirus (HCMV) continues to pose significant threats for pregnant women and immunocompromised hosts. HCMV causes serious morbidity and mortality in transplant recipients, and congenital HCMV is the leading infectious cause of mental retardation and deafness in children. In the 1990s, the annual costs associated with the disease burden of congenital CMV were estimated at around $2 billion. A HCMV vaccine is not available yet and HCMV therapies result in intolerable side effects and emergence of drug resistant viruses. […] Towards this goal we have developed and characterized a luciferase HCMV reporter that was initially used in 96 well plates and then optimized to 1536-well plates for utilization in screening of the MLSMR collection, the NGCG diversity collection and the NCGC Pharmaceutical Collection of approved and investigational drugs.
NCGC Assay Protocol Summary:
This is a cell-based assay for HCMV inhibition in HFFs cells. The screening used 2 compound doses and the HCMV-luciferase at MOI of 1 PFU/cell. Cells were treated and infected with HCMV. At 72 h post infection cell lysates were collected and luciferase activity was determined using the Glomax-Multi + Detection System (Promega, Madison, WI). Data were normalized to the controls for basal activity (buffer only) and known HCMV inhibitors Salinmoycin.
1536-well assay protocol for the assay:
(1) Add 3 ul CMV/HFF cell culture. 1000 cells/well in DMEM nirmal media.
(2) Incubate 16 hr at 37C.
(3) Add 23 nl control compound, 10uM of Salinomycin.
(4) Add 23 nl compounds in DMSO solution.
(5) Add 3 ul CMV suspension. Final 1 puf/ul, Virus stock 2000pfu/ul
(6) Incubate 72 hrs at 37C.
(7) Add 4 ul OneGlo Luc Reagent.
(8) Incubate 5 min at room temperature.
`O=[N+]([O-])c1cc([N+](=O)[O-])c(Nc2cccnc2)c([N+](=O)[O-])c1`: the activity change, negative = inhibition was inactive: 23.3%.

For the compound `Cc1cccc(C)c1OP(C)(N)=O` (stereo unspecified), the activity change, negative = inhibition was inactive: -19.7%.

`CC(C)(C)c1ccc(OP(C)(=O)Nc2ccc(SC(F)(F)F)cc2)cc1` (stereo unspecified): the activity change, negative = inhibition is inactive: -6.54%.

Turning to `Cc1ccc(NP(C)(=O)Oc2ccccc2)c(C)c1` (stereo unspecified), the activity change, negative = inhibition is inactive: 1.01%.

For the compound `COc1ccccc1OP(C)(=O)Nc1ccc(C)cc1` (stereo unspecified), the activity change, negative = inhibition was inactive: -0.26%.

On to `CCOC(=O)c1ccc(NP(C)(=O)Oc2ccccc2)cc1` (stereo unspecified), for which the activity change, negative = inhibition is inactive: 18.5%.

As for `COc1ccc(OP(C)(=O)Nc2cccc(F)c2)cc1` (stereo unspecified), the activity change, negative = inhibition is inactive: 11.1%.

`COc1ccccc1OP(C)(=O)Nc1cc(Cl)ccc1C` (stereo unspecified): the activity change, negative = inhibition is inactive: -22.7%.

Consider `CCN(CC)CCCOC(=O)C(O)(c1ccccc1)c1ccccc1`, for which the activity change, negative = inhibition is inactive: -22%.

Consider `COc1ccccc1-c1ccccn1.O=[N+]([O-])c1cc([N+](=O)[O-])c(O)c([N+](=O)[O-])c1`, for which the activity change, negative = inhibition is inactive: -9.87%.

In the case of `CP(=O)(Oc1ccccc1)OC(c1ccccc1)C(F)(F)F` (stereo unspecified), the activity change, negative = inhibition was inactive: 1.46%.

Take `CP(=O)(Nc1ccc(SC(F)(F)F)cc1)Oc1ccc(Cl)cc1` (stereo unspecified): the activity change, negative = inhibition was inactive: 16.1%.

For `Cc1cccc(C)c1OP(C)(=O)Nc1ccc(SC(F)(F)F)cc1` (stereo unspecified), the activity change, negative = inhibition was inactive: -3.37%.

Take `Cc1cc(C)cc(OP(C)(=O)Nc2ccc(SC(F)(F)F)cc2)c1` (stereo unspecified): the activity change, negative = inhibition is inactive: -12.8%.

With `O=[N+]([O-])c1cc([N+](=O)[O-])c(O)c([N+](=O)[O-])c1.c1ccc(Oc2ccncc2)cc1`, the activity change, negative = inhibition is inactive: -14.4%.

`CCOC(=O)c1ccc(NP(C)(=O)Oc2ccc(OC)cc2)cc1` (stereo unspecified): the activity change, negative = inhibition was inactive: 2.75%.

For `CCOP(C)(=S)SCC(=O)NC(C)C(=O)O` (stereo unspecified), the activity change, negative = inhibition is inactive: -30.2%.

As to `CP(=O)(Nc1ccccn1)Oc1ccc(Cl)cc1` (stereo unspecified), the activity change, negative = inhibition was inactive: 38.5%.

As to `CP(=O)(Nc1ccccc1Br)Oc1ccccc1` (stereo unspecified), the activity change, negative = inhibition was inactive: 6.53%.

Regarding `COc1ccccc1OP(C)(=O)Nc1ccccc1` (stereo unspecified), the activity change, negative = inhibition is inactive: 6.99%.

In the case of `O=[N+]([O-])c1cc([N+](=O)[O-])c(Nc2nnnn2CCO)c([N+](=O)[O-])c1`, the activity change, negative = inhibition was inactive: -23.6%.

`CN1CCCCC1COC(=O)C1(O)c2ccccc2CCc2ccccc21` (stereo unspecified): the activity change, negative = inhibition was inactive: 22%.

Consider `COc1ccccc1OP(C)(=O)Nc1c(C)cccc1C` (stereo unspecified), for which the activity change, negative = inhibition was inactive: 14.6%.

Consider `COc1ccc(-c2ccccn2)cc1.O=[N+]([O-])c1cc([N+](=O)[O-])c(O)c([N+](=O)[O-])c1`, for which the activity change, negative = inhibition was inactive: 15.4%.

Turning to `CP(=O)(Nc1ccc(SC(F)(F)F)cc1)Oc1ccccc1` (stereo unspecified), the activity change, negative = inhibition is inactive: -26.8%.

As for `CN(Cc1cccnc1)C(=O)COc1ccc(Cl)c(Cl)c1.O=[N+]([O-])c1cc([N+](=O)[O-])c(O)c([N+](=O)[O-])c1`, the activity change, negative = inhibition was inactive: -19.7%.

Values taken from PubChem BioAssay AID1259415 (National Center for Advancing Translational Sciences (NCATS), 2018).
